Experiments:
MT4 = conditions: human, mt4, 120 h
[1] = human, plasma, 2 h, 100 µM
in vitro [2] = conditions: human, liver microsomes
in vitro [3] = conditions: human, liver microsomes; remark: listed apart in the source

COc1ccc(N(C)C(=O)[C@H](Cc2cc(F)cc(F)c2)NC(=O)CN2CCN(CC(=O)N[C@@H](Cc3cc(F)cc(F)c3)C(=O)N(C)c3ccc(OC)cc3)C(=O)C2)cc1
CC50 (MT4): 14.5 µM | Stability [1]: 95% | remaining at 1 h, 100 µM (in vitro [2]): 0% | remaining at 1 h, 100 µM (in vitro [3]): 102%

Source: ChEMBL document CHEMBL5143506, “Design, synthesis, and mechanism study of dimerized phenylalanine derivatives as novel HIV-1 capsid inhibitors” (Eur J Med Chem, 2021)
